Test results published in patent US9909086B2, “Green glycine betaine derivative compounds and compositions containing same” (priority 2012, dated 2018).

Assays:
[1] = Cleaning performance, time to remove greasy kitchen soil
[2] = Cleaning performance, time to remove interior soil

| Structure (SMILES) | Cleaning Performance (time to remove soils), Greasy Kitchen ([1]; surfactant conc. 1 % (w/w)) [s] | Cleaning Performance (time to remove soils), Greasy Kitchen ([1]; surfactant conc. 3 % (w/w)) [s] | Cleaning Performance (time to remove soils), Interior ([2]; surfactant conc. 1 % (w/w)) [s] | Cleaning Performance (time to remove soils), Interior ([2]; surfactant conc. 3 % (w/w)) [s] |
| --- | --- | --- | --- | --- |
| CCCCCCCC/C=C\CCCCCCCCNC(=O)C[N+](C)(C)C.CS(=O)(=O)[O-] [GB Oleic amide, (Z)-betainyl amino octadec-9-ene methane sulfonate] | 15 | 15 | 10 | 10 |
| CCCCCCCCCCCCCCCCCCNC(=O)C[N+](C)(C)C.CS(=O)(=O)[O-] [GB Stearic amide, Betainyl amino octadecane methane sulfonate] | 10 | 10 | 10 | 10 |
